Results of unrelated studies side by side (data: NIAID ChemDB).

All rows: whole-cell or culture tests; species: Rhinovirus

ECn is the concentration giving n% inhibition of infection, replication or growth.

{"compound": "CS(=O)(=O)c1ccc(Cc2ccc(Cl)c(Cl)c2)nc1", "strain": "TYPE 64", "method": "cytopathic effect", "cells": "HeLa", "read-out": "EC50", "value": "<0.3 µg/mL"}
{"compound": "Cc1cc(CCCCCOc2cc(Cl)c(-c3nnc(C)o3)c(Cl)c2)on1", "strain": "Serotype 86", "read-out": "MIC80", "value": "0.57 µg/mL"}
{"compound": "CCn1c2c(c(=O)c3cc(C(C)C)ccc31)Cc1ccccc1-2", "strain": "39/209", "method": "cytopathic effect", "cells": "HELA-OHIO", "read-out": "EC50", "value": "1.7 µg/mL"}
{"compound": "CN(C)c1nc(C(F)(F)F)nc2c1ncn2Cc1ccccc1", "strain": "Serotype 13", "method": "plaque count", "cells": "M-HELA", "read-out": "EC50", "value": ">8 µM"}
{"compound": "Fc1cccc(Nc2nc(C(F)(F)F)nc3c2ncn3Cc2ccc(C(F)(F)F)cc2)c1", "strain": "Serotype 1B", "method": "plaque count", "cells": "M-HELA", "read-out": "EC50", "value": "3.5 µM"}
{"compound": "CS(=O)(=O)c1ccc(NCc2ccc(Cl)c(Cl)c2)nc1", "strain": "TYPE 8", "method": "cytopathic effect", "cells": "HeLa", "read-out": "EC50", "value": ">10 µg/mL"}
{"compound": "CCSc1nc2ccc(OCCC3CCN(c4nnc(C)s4)CC3)cc2o1", "strain": "Serotype 14", "method": "cytopathic effect", "cells": "MRC-5", "read-out": "EC50", "value": "0.056 µg/mL"}
{"compound": "CCO/N=C/c1ccc(OCCC2CCN(c3ccc(Cl)nn3)CC2)cc1", "strain": "56822 (ICAM-1 receptor group 42)", "method": "neutral red", "cells": "KB", "read-out": "EC50", "value": "0.103 µM"}
{"compound": "Cc1c(-c2ccccc2)n(-c2cccc(F)c2)c2ccc(C(C)C)cc2c1=O", "strain": "TYPE 1B/B632", "method": "cytopathic effect", "cells": "HELA-OHIO", "read-out": "EC50", "value": "0.18 µg/mL"}
{"compound": "CSc1nsc(-c2ccc(O)cc2)c1C#N", "strain": "Serotype 59 (group B)", "method": "cytopathic effect", "cells": "HELA-OHIO", "read-out": "EC50", "value": ">10 µM"}
{"compound": "CCOC(=O)c1ccc(OCCOc2ccc(-c3snc(SC)c3C#N)cc2)cc1", "strain": "Serotype 2 (group B)", "method": "cytopathic effect", "cells": "HELA-OHIO", "read-out": "EC50", "value": ">2 µM"}
{"compound": "Fc1cccc(Cn2cnc3c(Nc4cccc(F)c4)nc(C(F)(F)F)nc32)c1", "strain": "Serotype 1B", "method": "plaque count", "cells": "M-HELA", "read-out": "EC50", "value": "0.43 µM"}
{"compound": "COCc1cc(CCCOc2c(Cl)cc(-c3noc(C)n3)cc2Cl)on1", "strain": "Serotype 15", "method": "cytopathic effect", "cells": "HeLa", "read-out": "EC50", "value": "0.137 µg/mL"}
{"compound": "CSc1nsc(-c2ccc(OCCOc3ccccc3)cc2)c1C#N", "strain": "Serotype 72 (group A)", "method": "cytopathic effect", "cells": "HELA-OHIO", "read-out": "EC50", "value": ">20 µM"}
{"compound": "CCn1oc2cc(OCCC3CCN(c4ccc(C)nn4)CC3)ccc2c1=O", "strain": "Serotype 14", "method": "cytopathic effect", "cells": "MRC-5", "read-out": "EC50", "value": ">0.25 µg/mL"}
{"compound": "CS(=O)(=O)c1ccc(Oc2ccc(C(=O)c3ccccc3)cc2)nc1", "strain": "TYPE 68", "method": "cytopathic effect", "cells": "HeLa", "read-out": "EC50", "value": ">10 µg/mL"}
{"compound": "CSc1nsc(-c2ccc(OCc3ccccc3)cc2)c1C#N", "strain": "Serotype 59 (group B)", "method": "cytopathic effect", "cells": "HELA-OHIO", "read-out": "EC50", "value": "12 µM"}
{"compound": "CCS(=O)(=O)c1ccc(Cc2ccc(Cl)c(Cl)c2)nc1", "strain": "TYPE 64", "method": "cytopathic effect", "cells": "HeLa", "read-out": "EC50", "value": "0.6 µg/mL"}
{"compound": "Cc1cc(OCCCc2ccc(CO)nn2)cc(C)c1-c1noc(C(F)(F)F)n1", "strain": "serotypes 3 4 5 9 16 18 38 66 75 67", "method": "cytopathic effect", "cells": "HeLa", "read-out": "EC80", "value": "0.18 µg/mL"}
{"compound": "CCOc1nc2ccc(OCCC3CCN(c4nnc(C)s4)CC3)cc2o1", "strain": "Serotype 14", "method": "cytopathic effect", "cells": "MRC-5", "read-out": "EC50", "value": "0.056 µg/mL"}
{"compound": "CCc1nc(-c2cc(C)c(OCCCc3cc(COC)no3)c(C)c2)no1", "strain": "Serotype 50", "method": "cytopathic effect", "cells": "HeLa", "read-out": "EC50", "value": "0.027 µg/mL"}
{"compound": "CSc1nsc(-c2ccccc2)c1C#N", "strain": "Serotype 42 (group A)", "method": "cytopathic effect", "cells": "HELA-OHIO", "read-out": "EC50", "value": ">80 µM"}
{"compound": "CCc1ccc(CCCOc2cc(C)c(-c3noc(C(F)(F)F)n3)c(C)c2)nn1", "strain": "serotypes 3 4 5 9 16 18 38 66 75 67", "method": "cytopathic effect", "cells": "HeLa", "read-out": "EC50", "value": "0.515 µg/mL"}
{"compound": "CCOc1nc2ccc(OCCCC3CCN(c4ccc(Cl)nn4)CC3)cc2o1", "strain": "Serotype 14", "method": "cytopathic effect", "cells": "MRC-5", "read-out": "EC50", "value": "0.01 µg/mL"}
{"compound": "COc1ccc(-c2snc(SC)c2C#N)cc1", "strain": "Serotype 70 (group A)", "method": "cytopathic effect", "cells": "HELA-OHIO", "read-out": "EC50", "value": ">12 µM"}
{"compound": "CCSc1ccc(Oc2ccc(C(=O)c3ccccc3)cc2)nc1C#N", "strain": "TYPE 64", "method": "cytopathic effect", "cells": "HeLa", "read-out": "EC50", "value": ">10 µg/mL"}
{"compound": "Cc1ccc(Cn2cnc3c(N(C)C)nc(C(F)(F)F)nc32)c(C)c1", "strain": "Serotype 19", "method": "plaque count", "cells": "M-HELA", "read-out": "EC50", "value": ">8 µM"}
{"compound": "CCOC(=O)c1ccc(OCCC2CCN(c3ccc(C)nn3)CC2)cc1", "strain": "Serotype 54", "method": "cytopathic effect", "cells": "HeLa", "read-out": "EC50", "value": "<0.1 µg/mL"}
{"compound": "Cc1cc(CCCCCOc2cc(Cl)c(-c3nnco3)c(Cl)c2)on1", "strain": "Serotype 1B", "read-out": "MIC80", "value": "0.53 µg/mL"}
{"compound": "CCOc1cnnc2cc(OCCC3CCN(c4ccc(C)nn4)CC3)ccc12", "strain": "Serotype 2", "method": "cytopathic effect", "cells": "MRC-5", "read-out": "EC50", "value": "0.19 µg/mL"}
{"compound": "Cc1cc(CCCCCOc2c(Cl)cc(C3=NCCO3)cc2Cl)on1", "strain": "TYPE 61", "method": "plaque count", "cells": "HeLa", "read-out": "EC50", "value": "0.067 µg/mL"}
{"compound": "Cc1c(-c2ccccc2)n(-c2ccc(F)cc2)c2ccc(C(C)C)cc2c1=O", "strain": "61/6669-CV39", "method": "cytopathic effect", "cells": "HELA-OHIO", "read-out": "EC50", "value": "0.3 µg/mL"}
{"compound": "CSc1nsc(-c2ccc(OCCCCOc3ccccc3)cc2)c1C#N", "strain": "Serotype 45 (group A)", "method": "cytopathic effect", "cells": "HELA-OHIO", "read-out": "EC50", "value": ">20 µM"}
{"compound": "Cc1cc(CCCOc2c(C)cc(-c3noc(C(F)(F)F)n3)cc2C)on1", "strain": "Isolate 21", "method": "cytopathic effect / visual reading", "cells": "OHIO HELA-I", "read-out": "EC50", "value": "1.75 µg/mL"}
{"compound": "Cc1cc(OCCCc2ccc(C(C)F)nn2)cc(C)c1-c1noc(C(F)F)n1", "strain": "serotypes 3 4 5 9 16 18 38 66 75 67", "method": "cytopathic effect", "cells": "HeLa", "read-out": "EC80", "value": "0.06 µg/mL"}
{"compound": "Cc1ccccc1Cn1cnc2c(N(C)C)nc(C(F)(F)F)nc21", "strain": "Serotype 21", "method": "plaque count", "cells": "M-HELA", "read-out": "EC50", "value": ">8 µM"}
{"compound": "COC(=O)c1cc(CCCOc2c(C)cc(-c3noc(C)n3)cc2C)on1", "strain": "Serotype 14", "method": "cytopathic effect", "cells": "HeLa", "read-out": "EC50", "value": "0.044 µg/mL"}
{"compound": "CN(C)c1nc(C(F)(F)F)nc2c1ncn2Cc1ccc(C(F)(F)F)cc1", "strain": "Serotype 1B", "method": "plaque count", "cells": "M-HELA", "read-out": "EC50", "value": "0.11 µM"}
{"compound": "CS(=O)(=O)c1ccc(Cc2ccccc2)nc1", "strain": "TYPE 64", "method": "cytopathic effect", "cells": "HeLa", "read-out": "EC50", "value": ">10 µg/mL"}
{"compound": "CSc1nsc(-c2ccc(OCCOc3ccc([N+](=O)[O-])cc3)cc2)c1C#N", "strain": "Serotype 89 (group B)", "method": "cytopathic effect", "cells": "HELA-OHIO", "read-out": "EC50", "value": ">2 µM"}
{"compound": "CN(C)c1nc(C(F)(F)F)nc2c1ncn2Cc1ccc(Cl)cc1Cl", "strain": "Serotype 15", "method": "plaque count", "cells": "M-HELA", "read-out": "EC50", "value": ">8 µM"}
{"compound": "CS(=O)(=O)c1ccc(Cc2ccc(N)cc2)nc1", "strain": "TYPE 1A", "method": "cytopathic effect", "cells": "HeLa", "read-out": "EC50", "value": ">10 µg/mL"}
{"compound": "Cc1cc(CCCCCCCOc2ccc(-c3nnc(C)o3)cc2)on1", "strain": "serotype 2 1A 1B 6 14 21 22 15 25 30 50 67 89 86 41", "read-out": "MIC80", "value": "3.2 µg/mL"}
{"compound": "CSc1ccc(Cc2ccc(S(C)(=O)=O)cn2)cc1", "strain": "TYPE 1A", "method": "cytopathic effect", "cells": "HeLa", "read-out": "EC50", "value": "5 µg/mL"}
{"compound": "CN(C)c1nc(C(F)(F)F)nc2c1ncn2Cc1ccc(Cl)c(N)c1", "strain": "Serotype 19", "method": "plaque count", "cells": "M-HELA", "read-out": "EC50", "value": ">8 µM"}
{"compound": "CCOC(=O)c1ccc(OCCC2CCN(c3ccc(C)nn3)CC2)cc1", "strain": "Serotype 29 (group B)", "method": "cytopathic effect", "cells": "HELA-OHIO", "read-out": "EC50", "value": "0.02 µM"}
{"compound": "COCc1ccc(CCCOc2cc(C)c(-c3noc(C)n3)c(C)c2)nn1", "strain": "serotypes 3 4 5 9 16 18 38 66 75 67", "method": "cytopathic effect", "cells": "HeLa", "read-out": "EC80", "value": "0.44 µg/mL"}

The last 6 rows once more:

compound	strain	method	cells	read-out	value
CS(=O)(=O)c1ccc(Cc2ccc(N)cc2)nc1	TYPE 1A	cytopathic effect	HeLa	EC50	>10 µg/mL
Cc1cc(CCCCCCCOc2ccc(-c3nnc(C)o3)cc2)on1	serotype 2 1A 1B 6 14 21 22 15 25 30 50 67 89 86 41	-	-	MIC80	3.2 µg/mL
CSc1ccc(Cc2ccc(S(C)(=O)=O)cn2)cc1	TYPE 1A	cytopathic effect	HeLa	EC50	5 µg/mL
CN(C)c1nc(C(F)(F)F)nc2c1ncn2Cc1ccc(Cl)c(N)c1	Serotype 19	plaque count	M-HELA	EC50	>8 µM
CCOC(=O)c1ccc(OCCC2CCN(c3ccc(C)nn3)CC2)cc1	Serotype 29 (group B)	cytopathic effect	HELA-OHIO	EC50	0.02 µM
COCc1ccc(CCCOc2cc(C)c(-c3noc(C)n3)c(C)c2)nn1	serotypes 3 4 5 9 16 18 38 66 75 67	cytopathic effect	HeLa	EC80	0.44 µg/mL

An empty or dashed field is not shown. MIC50, MIC90 and the like: level of inhibition, or share of isolates inhibited. Neighbouring rows are from separate reports.